PubChem BioAssay AID624099, ICCB-Longwood | 2012
Shown is one part, drawn at random, of about 21,000 deposited reagents. Of all reagents, 497 (2.4%) got an active call. 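Higher z means weaker E2 silencing; only reporter increases were scored, and knock-downs that hurt cell survival may mask genuine repressor factors.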

Screen: 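Host factors E2 relies on to silence an HPV18 LCR reporter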 (primary screen)
Cells: human C33A cervical carcinoma cells (HPV-negative) stably expressing BPV1 E2 and an HPV18 LCR luciferase reporter
Reagent: siRNA pool against human genes, 40 nM
Time to read-out: 72 h
Measured: 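HPV18 LCR reporter light per well, converted to plate-wise z-scores that exclude control wells, and averaged over triplicate plates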
Reading the numbers: mean z-score and z-score: higher = stronger reporter signal, weaker E2 silencing
Call rule: 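Mean z ≥ 2 together with z ≥ 2 in two or more of the three replicates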

no.	gene	mean z-score	z-score, replicate A	z-score, replicate B	z-score, replicate C	call
1	CNOT2 (CCR4-NOT transcription complex subunit 2)	1.7	1.78	1.53	1.79	inactive
2	LOC286129 (retired record)	-1.59	-1.47	-1.92	-1.39	inactive
3	SRY (sex determining region Y)	0.02	0.1	0.09	-0.13	inactive
4	KRTAP5-8 (keratin associated protein 5-8)	-1.04	-1.13	-0.72	-1.28	inactive
5	PLAG1 (PLAG1 zinc finger)	0.62	0.41	0.56	0.88	inactive
6	FKBP9 (FKBP prolyl isomerase 9)	-1.2	-1.58	-0.88	-1.15	inactive
7	NTN4 (netrin 4)	-0.03	0.06	0	-0.16	inactive
8	DIP2A (DIP2 acetate--CoA ligase A)	-1.07	-1.04	-1.14	-1.04	inactive
9	TRIP13 (thyroid hormone receptor interactor 13)	-0.59	-0.46	-0.66	-0.67	inactive
10	MYRIP (myosin VIIA and Rab interacting protein)	0.13	0.26	0.2	-0.06	inactive
11	LIPT1 (lipoyltransferase 1)	0.09	0.13	0.22	-0.09	inactive
12	FLCN (folliculin)	-0.22	0	-0.32	-0.34	inactive
13	NMNAT1 (nicotinamide nucleotide adenylyltransferase 1)	-0.77	-0.68	-0.92	-0.71	inactive
14	FATE1 (fetal and adult testis expressed 1)	-0.97	-1.05	-1.13	-0.73	inactive
15	EBLN3P (endogenous Bornavirus like nucleoprotein 3, pseudogene)	0.05	0.16	0.3	-0.31	inactive
16	GNB1L (G protein subunit beta 1 like)	1.34	1.39	1.1	1.53	inactive
17	PPCDC (phosphopantothenoylcysteine decarboxylase)	-0.49	-1	-0.5	0.04	inactive
18	LOC440318 (retired record)	0.13	0.3	0.16	-0.07	inactive
19	YKT6 (YKT6 vesicular SNARE protein)	1.38	1.62	1.35	1.17	inactive
20	PADI4 (peptidyl arginine deiminase 4)	-0.1	0.16	-0.39	-0.08	inactive
21	NIT1 (nitrilase 1)	0.47	0.12	0.82	0.48	inactive
22	CUL4A (cullin 4A)	-0.08	-0.2	-0.2	0.15	inactive
23	CLIP4 (CAP-Gly domain containing linker protein family member 4)	-1.17	-0.97	-1.35	-1.18	inactive

Part of the list above, reformatted.
{"gene": "GNB1L (G protein subunit beta 1 like)", "mean z-score": 1.34, "z-score, replicate A": 1.39, "z-score, replicate B": 1.1, "z-score, replicate C": 1.53, "call": "inactive"}
{"gene": "PPCDC (phosphopantothenoylcysteine decarboxylase)", "mean z-score": -0.49, "z-score, replicate A": -1, "z-score, replicate B": -0.5, "z-score, replicate C": 0.04, "call": "inactive"}
{"gene": "LOC440318 (retired record)", "mean z-score": 0.13, "z-score, replicate A": 0.3, "z-score, replicate B": 0.16, "z-score, replicate C": -0.07, "call": "inactive"}
